Compound potency records, mixed from different reports. Data source: NIAID ChemDB in PubChem.

Shared fields: growth or infection tests; species: Mycobacterium tuberculosis

Conditions beyond the fields shown may differ between rows. MIC bound: limit read from a one-dose screen. An empty or dashed field is not shown. A number after MIC or MFC names an inhibition level or a share of isolates. Two numbers with a dash give a range or band. Percent inhibition refers to the dose given; in toxicity tests it is the harm to the cells. ECn is the concentration giving n% inhibition of infection, replication or growth.

compound,read-out,dose,strain or isolate,method,value
COc1nc2ccc(Br)cc2cc1C(c1ccccc1)C(O)(CCN1CCN(c2ncccn2)CC1)c1ccc2ccccc2c1,MIC90,-,H37Rv,-,67.47 µg/mL
O=C(/C=C/c1cc2cc(Br)ccc2nc1Cl)c1ccc(F)cc1,inhibition,6.25 µg/mL,H37Rv,broth dilution,99%
OO,EC50,-,H37Rv,-,>0.0005 µM
CC(C)N=c1cc2n(-c3ccc(Cl)cc3)c3ccccc3nc-2cc1Nc1ccc(Cl)cc1,MIC bound,-,H37Rv,BACTEC,≤12.5 µg/mL
COc1nc2ccc(Br)cc2cc1C(c1ccccc1)C(O)(CCN(C)C)c1ccc2ccccc2c1,MIC90,-,H37Rv,-,1.76 µg/mL
O=C(c1ccncc1)N(/N=C/c1ccc(Cl)cc1)C(=O)c1cnccn1,MIC,-,9 isolates (sensitive),-,0.5–2 µg/mL
CSc1ccc(C2CC(c3c(O)c4c(C)ccc(C)c4oc3=O)=Nc3ccccc3N2)cc1,MIC,-,H37Rv,resazurin,>6.25 µg/mL
O=C(Nc1ccc(C2=NCCCN2)cc1)c1ccc(C(=O)Nc2ccc(C3=NCCCN3)cc2)nc1,MIC,-,CS-R,-,12.5 µg/mL
Cc1[nH]ccc2c1[nH]c1cc(=O)ccc12,EC50,-,H37Rv,-,>6.25 µg/mL
C=C1C2CC[C@H](C=O)C(O)(C=O)[C@@]2(C)CC[C@@H]1C,MIC,-,H37Rv,-,200 µg/mL
O=C(c1ccncc1)N(NCc1cccc([N+](=O)[O-])c1)C(=O)c1cnccn1,MIC,-,H37Rv,-,0.25 µg/mL
CCOC(=O)CN1C(=O)C(=O)N(c2ccc(OC)c3ccccc23)C1=O,MIC bound,-,H37Rv,BACTEC,>12.5 µg/mL
CCCCC(=O)Oc1ccc2c(c1)[nH]c1c(C)nccc12,inhibition,6.25 µg/mL,H37Rv,-,16%
O=C1/C(=C/c2ccccc2)CN(C(=O)c2ccc([N+](=O)[O-])cc2)C/C1=C\c1ccccc1,EC50,-,H37Rv,-,>6.25 µg/mL
COC1CCCC(OC2CCCC(OC)C2)C1,MIC,-,-,-,>0.13 µg/mL
COC(=O)c1cc2c(o1)-c1nccc3c1c(nc1ccccc13)C2=O,MIC,-,H37Rv,-,0.61 µM
CCCCCCCCCCCCCCCCCC1=NC(CO)(CO)CO1,inhibition,12.5 µg/mL,H37Rv,BACTEC,-11%
N#Cc1c(-c2cccs2)cc(-c2cc3cc(F)ccc3nc2Cl)nc1N,inhibition,6.25 µg/mL,H37Rv,broth dilution,21%
Cc1ccc(NC(=O)/C=C/C(=O)N2C/C(=C\c3ccccc3)C(=O)/C(=C/c3ccccc3)C2)cc1,EC50,-,H37Rv,-,>6.25 µg/mL
Cc1cccc(C(=S)Nc2ccc(C(C)C)cc2)c1,MIC,-,My 331/88,-,62.5 µM
CCN(CC)CCC(O)(c1ccccc1)C(c1ccccc1)c1cc2cc(Br)ccc2nc1OC,MIC90,-,H37Rv,-,6.72 µg/mL
COc1cc2c(cc1O)C(Cc1ccc(O)c(Oc3ccc(C4CCc5cc(OC)c(OC)cc5N4C)cc3)c1)N(C)CC2,MIC,-,-,-,1 µg/mL
O=S1(=O)CS(=O)(=O)OCCCCO1,MIC,-,H37Rv,BACTEC,≥12.5 µg/mL
CN(C)CCC(O)(c1ccccc1)C(c1ccccc1)c1cnc2ccc(Br)cc2c1,MIC90,-,H37Rv,-,47.54 µg/mL
O=C(/C=C/C(=O)N1C/C(=C\c2ccccc2)C(=O)/C(=C/c2ccccc2)C1)Nc1ccc(Cl)c(Cl)c1,inhibition,6.25 µg/mL,H37Rv,-,74%
O=c1oc2ccccc2c(O)c1C1=Nc2ccccc2NC(c2cccc(Br)c2)C1,MIC,-,H37Rv,resazurin,>6.25 µg/mL
COc1cccc(/C=N/NC(=O)C(=O)N/N=C/c2cccc(OC)c2O)c1O,inhibition,12.5 µg/mL,H37Rv,BACTEC,24%
CC(=O)NCCC1C2=C3C(=NC=CC3C3C=CC=CC3N2)c2ncsc21,MIC,-,H37Rv,-,>34 µM
CNC(=O)OCc1c(C)oc(-c2ccc(Cl)c(Cl)c2)c1COC(=O)NC,inhibition,12.5 µg/mL,H37Rv,BACTEC,26%
O=C([O-])C(F)(F)F.[NH3+]CCNC1=CC(=O)c2nc3ccccc3c3ccnc1c23,MIC,-,H37Rv,-,5.5 µM
COc1ccc(CC2NCCc3cc(OC)c(O)cc32)cc1,MIC,-,-,-,>0.2 µg/mL
CSc1nc2ccc(Br)cc2cc1C(c1ccccc1)C(O)(CCN(C)C)c1cccc2ccccc12,MIC90,-,H37Rv,-,45.4 µg/mL
CCOC(=O)CCSC1=CC(=O)c2nc3ccccc3c3ccnc1c23,MIC,-,H37Rv,-,2.1 µM
O=C(/C=C/C(=O)N1C/C(=C\c2ccccc2)C(=O)/C(=C/c2ccccc2)C1)Nc1ccccc1,inhibition,6.25 µg/mL,H37Rv,-,0%
CCSC1=CC(=O)c2nc3ccccc3c3ccnc1c23,MIC,-,H37Rv,-,0.34 µM
O=C(NNc1ccccc1)C(O)C(O)C(O)C(O)CO,inhibition,12.5 µg/mL,H37Rv,BACTEC,-2%
COc1ccc(CNN(C(=O)c2ccncc2)C(=O)c2cnccn2)cc1,MIC,-,H37Rv,-,0.25 µg/mL
CC[C@@H]1C(=O)OC[C@@H]1Cc1cncn1C,MIC,-,H37Rv,-,>200 µg/mL
Cc1c[nH]c(=O)[nH]c1=O,inhibition,12.5 µg/mL,H37Rv,BACTEC,2%
O=C1/C(=C/c2ccccc2)CN(C(=O)/C=C/c2ccc(Cl)cc2)C/C1=C\c1ccccc1,inhibition,6.25 µg/mL,H37Rv,-,0%
CCCCCCCCSC1=CC(=O)c2nc3ccccc3c3ccnc1c23,MIC,-,H37Rv,-,1 µM
CCCCCCC(=O)Oc1ccc2c(c1)[nH]c1c(C)nccc12,EC50,-,H37Rv,-,>6.25 µg/mL
C=CN1C(=O)N(C=C)C(C)(C(C)(C)C)C1=O,MIC bound,-,H37Rv,BACTEC,>12.5 µg/mL
CC(=O)NCCC1=C2Nc3ccccc3C3C=CN=C(C4=C1SCO4)C23,MIC,-,H37Rv,-,>17 µM
CCCCCCCCO[C@@H]1O[C@@H](C(CO[C@@H]2O[C@@H](C(O)CO)[C@H](O)[C@H]2O)OC)[C@H](OC)[C@H]1OC,MIC,-,H37Ra,-,>128 µg/mL
O=c1oc2ccccc2c(O)c1C1=Nc2ccccc2NC(c2ccc(O)cc2)C1,MIC,-,H37Rv,resazurin,>6.25 µg/mL
CC(=O)NCCc1c2c(c3nccc4c3c1Nc1ccccc1-4)NC(=O)CS2,MIC,-,H37Rv,-,>32 µM
CCCCc1ccc(NC(=S)c2cccc(C)c2)cc1,MIC,-,My 331/88,-,32 µM
O=c1oc2ccccc2c(O)c1C1=CC(c2ccc(O)cc2)Sc2ccccc2N1,MIC,-,H37Rv,resazurin,<6.25 µg/mL
CCCCN(C)C(=O)COc1ccc(/C=C(/C(=O)c2ccc(OC)cc2)c2ccccc2)cc1,MIC100,-,H37Rv,-,>250 µg/mL
CC[C@H]1C[C@@H]2CN3CCc4c([nH]c5ccc(OC)cc45)[C@](C(=O)OC)(C2)[C@H]13,MIC,-,H37Rv,-,50 µg/mL
CC(=O)N[C@H]1[C@@H](OCc2ccccc2)O[C@H](CO)[C@@H](O)[C@@H]1OC(C)C(=O)NC(C)C(=O)NC(CCC(=O)NCCCCNc1c2ccccc2nc2cccc([N+](=O)[O-])c12)C(N)=O,MIC bound,-,H37Rv,resazurin,>6.25 µg/mL
CC(C)c1ccc(NC(=S)c2ccccc2)cc1,MIC,-,My 331/88,-,32 µM
N#Cc1c(-c2ccc(Br)cc2)cc(-c2cc3cc(F)ccc3nc2Cl)nc1N,inhibition,6.25 µg/mL,H37Rv,broth dilution,99%
CC(C)c1ccc(NC(=S)c2cccc(Cl)c2)cc1,MIC,-,My 331/88,-,32 µM
CCCCCCCCOC1OC([C@H](CO)OC2O[C@@H](C(O)CO)[C@H](O)[C@H]2O)[C@H](O)[C@H]1O,MIC,-,H37Ra,-,>128 µg/mL
S=C(Nc1ccc(C2CCCCC2)cc1)c1cccc(Cl)c1,MIC,-,My 331/88,-,16 µM
O=c1oc2ccccc2c(O)c1C1=Nc2ccccc2SC(c2cccc([N+](=O)[O-])c2)C1,MIC,-,H37Rv,resazurin,<6.25 µg/mL
Cc1ccc(/C=C/C(=O)N2C/C(=C\c3ccccc3)C(=O)/C(=C/c3ccccc3)C2)cc1,EC50,-,H37Rv,-,>6.25 µg/mL
CCN(C)CCC(O)(c1cccc2ccccc12)C(c1ccccc1)c1cc2cc(Br)c(C)cc2nc1OC,MIC90,-,H37Rv,-,9.03 µg/mL
COC1CCCC(OC2CCCCC2OC)C1,MIC,-,-,-,>0.13 µg/mL
Cc1nn(C(=O)c2ccc(Cl)cc2)c2c1C(c1ccc([N+](=O)[O-])cc1)SC(N)=N2,inhibition,6.25 µg/mL,H37Rv,resazurin,13%
CN1CCCc2c(Oc3ccccc3)cccc21,MIC,-,-,-,>0.14 µg/mL
O=C(c1ccncc1)N(/N=C/c1cccc(Cl)c1)C(=O)c1cnccn1,MIC,-,H37Rv,-,0.5 µg/mL
O=C(C1=NS(=O)(=O)c2ccc(Cl)cc2S1)c1ccc(Cl)c(Cl)c1,MIC bound,-,H37Rv,resazurin,>6.25 µg/mL
O=C(NCCCOCCOCCOCCNC(=O)c1ccc2c(c1)B(O)OC2)c1ccc2c(c1)B(O)OC2,MIC,-,H37Rv,visual reading / absorbance,1560 µM
Cc1nccc2c1[nH]c1cc(OC(=O)c3ccccc3)ccc12,inhibition,6.25 µg/mL,H37Rv,-,41%
O=C(/C=C/c1cc2cc(F)ccc2nc1Cl)c1ccc(Cl)cc1Cl,inhibition,6.25 µM,H37Rv,broth dilution,13%
COC(=O)[C@H]1[C@H](O)[C@H](C)[C@@H](O)[C@@H](C)/C=C(\C)C2=C3C(=C(C)C(=O)c4c(O)c(c(C)c(OC(C)=O)c43)NC(=O)/C(C)=C/C=C\[C@@H](C)C(O)[C@@H](C)[C@H]1O)OCO2,inhibition,12.5 µg/mL,H37Rv,BACTEC,47%
CSc1ccc(C2CC(c3c(O)c4cc(C)ccc4oc3=O)=Nc3ccccc3N2)cc1,MIC,-,H37Rv,resazurin,>6.25 µg/mL
Clc1ccc2oc3ccc(Cl)cc3c2c1,MIC bound,-,H37Rv,BACTEC,>12.5 µg/mL
CO[C@H]1/C=C/O[C@@]2(C)Oc3c(C)c(O)c4c(=O)c(c5oc6cc(N7CCN(CC(C)C)CC7)cc(=O)c6nc5c4c3=C2O)NC(=O)/C(C)=C\C=C\[C@H](C)[C@H](O)[C@@H](C)[C@@H](O)[C@@H](C)[C@H](OC(C)=O)[C@@H]1C,MIC,-,12 (pyrazinamide-resistant),-,0.0019 µg/mL
O=C1CNC(c2ccccc2)C(c2ccccc2)N1,MIC bound,-,H37Rv,BACTEC,>12.5 µg/mL
c1ccc(OC2CCCc3ncccc32)cc1,MIC,-,-,-,>0.05 µg/mL
Cc1ccc2nc(CN(CCO)CCO)cc(=O)n2c1,inhibition,6.25 µg/mL,H37Rv,resazurin,-13%
COc1ccc(C2CC(c3c(O)c4cc(C)ccc4oc3=O)=Nc3ccccc3N2)cc1,MIC,-,H37Rv,resazurin,>6.25 µg/mL
COC(=O)C[C@H]1C(C)(C)C(=O)[C@@H]2CC3=C4CC(=O)O[C@@H](c5ccoc5)[C@]4(C)CC[C@@H]3[C@@]1(C)C2=O,inhibition,12.5 µg/mL,H37Rv,BACTEC,0%
CCCCCCCCO[C@@H]1O[C@@H](C(CO[C@@H]2O[C@@H](C(COC(C)=O)OC(C)=O)[C@H](OC(C)=O)[C@H]2OC(C)=O)OC)[C@H](OC)[C@H]1OC,MIC,-,H37Ra,-,>128 µg/mL
COc1cccc2c1C(=O)c1c(O)c3c(c(O)c1C2=O)C[C@](O)(C(=O)CN1CCN(C)CC1)C[C@H]3OC1CC(N)C(O)C(C)O1.Cl,MIC,-,H37Rv,BACTEC,≥12.5 µg/mL
C/C=C1/CN2[C@H]3C[C@@H]1[C@@H](CO)[C@@H]2Cc1c3[nH]c2ccc(OC)cc12,MIC,-,H37Rv,-,100 µg/mL
CC(NC(=O)C(Cc1ccccc1)NC(=O)c1ccc[n+](Cc2ccccc2)c1)C(N)=O.[Br-],MIC,-,H37Rv,BACTEC,≥12.5 µg/mL
O=C(c1ccncc1)N(/N=C/c1cccc(Oc2ccccc2)c1)C(=O)c1cnccn1,MIC,-,9 isolates (sensitive),-,>16 µg/mL